Reference: US20220072149A1, “BIOLOGICALLY ACTIVE CLUSTER OF MOLECULES” (priority 2018, published 2022)

Experiments:
human A431 tumor cells = assay: A431 xenograft tumor model: ADC combined with cetuximab-SO1861 conjugate; type: in vivo, mouse; details: A431 xenograft in Balb/c nude mice, sub-optimal ADC dose
Description: Female Balb/c nude mice were injected subcutaneously with a suspension of human A431 tumor cells.
Under the skin of the mice, a human epidermal carcinoma developed in the xenograft animal tumor model. After injection of the tumor cells, the xenograft tumor was allowed to develop to a size of approximately 170-180 mm^3. The A431 tumor cells have the following characteristics: high EGFR expressors, medium CD71 expressors, low HER2 expressors.
In Table A, the results of the treatment of control mice and tumor-bearing mice are presented. Tumor-bearing mice were treated with the indicated antibodies directed to either human Her2/neu, human EGFR, or human CD71, which are cell-surface receptors on the xenograft tumor. Cetuximab was covalently conjugated with saponin SO1861. […] The ADCs trastuzumab-saporin (covalent conjugate) and anti-CD71 mAb (OKT-9, IgG)—saporin (covalent conjugate) were tested for their tumor-attacking efficacy in the mice, measured as tumor volume in time after start of the treatment with the ADCs. The dose of the ADCs was sub-optimal in the tumor model. That is to say, from previous experiments, it was established at which sub-optimal dose of the ADCs no tumor-regression or arrest of tumor growth would be observable.

[1] = system: MDA-MB-468 cells (EGFR++/CD71+); assay: cell killing activity in MDA-MB-468 cells; type: cell-based, human
[2] = system: SK-BR-3 cells (HER2++/CD71+); assay: cell killing activity in SK-BR-3 cells; type: cell-based, human; details: SK-BR-3, HER2 expressing; 1 target 2-components with trastuzumab-saporin

Row | Substance | outcome of the animals (death/euthanasia or survival) (human A431 tumor cells) | tumor size (volume) (human A431 tumor cells; tumors 170-180 mm^3 at start) | toxin-mediated cell killing ([1]; MDA-MB-468, high EGFR, 1 target 2-components with cetuximab-saporin) | cell killing activity, controls ([1]; MDA-MB-468, 2 target 2 components, treatments as labelled) | toxin-mediated cell killing [2]
1 | Cetuximab-SO1861: cetuximab covalently conjugated with saponin SO1861 via EMCH linker to reduced cysteines | death/euthanasia | 2000 mm^3 |  |  | 
2 | Cetuximab: anti-EGFR monoclonal antibody [reference compound] | (death/euthanasia) |  | not induced | not induced | 
3 | trastuzumab: anti-HER2 monoclonal antibody |  |  |  |  | not induced
